Biological target: 35022 Fab (human)
Test: BLI

Chains of the proteins cited; added tags and fusions are not shown. A line that says so, or that is headed by a name, gives the form on record, which may keep a tag or linker.
35022 Fab (human), light, as listed by the source, chain 2 of 2: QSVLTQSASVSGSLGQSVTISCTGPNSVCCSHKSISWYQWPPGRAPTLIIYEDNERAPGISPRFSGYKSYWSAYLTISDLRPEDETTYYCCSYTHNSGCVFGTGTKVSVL

EDC cross-linked ConM SOSIP soluble gp140 Env trimer (GMP) (complex)
Kd: 2 µM | koff: 8.3e-05 s⁻¹

— article PMC10345191
